Results of unrelated studies side by side (data: NIAID ChemDB).

Shared fields: growth or infection tests; organism: Mycobacterium fortuitum; measure: MIC90

MIC50, MIC90 and the like: level of inhibition, or share of isolates inhibited. Blank or dashed fields: not listed here. Rows are shuffled and stem from different studies.

CC1COc2c(N3CCN(C)CC3)c(F)cc3c(=O)c(C(=O)O)cn1c23 ; strain: 20 strains ; value: 3.13 µg/mL
CC(C)N=c1cc2n(-c3ccc(Cl)cc3)c3ccccc3nc-2cc1Nc1ccc(Cl)cc1 ; method: fluorescence ; value: 0.276 µg/mL
Cc1noc(N)c1C(=O)NN ; method: resazurin ; strain: PCM 672 ; value: >100 µg/mL
CC[C@H]1OC(=O)[C@H](C)[C@@H](O[C@H]2C[C@@](C)(OC)[C@@H](O)[C@H](C)O2)[C@H](C)[C@@H](O[C@@H]2O[C@H](C)C[C@H](N(C)C)[C@H]2O)[C@](C)(O)C[C@@H](C)CN(C)[C@H](C)[C@@H](O)[C@]1(C)O ; strain: 25 isolates ; value: >8 µg/mL
COc1ccc(/C=N/NC(=O)c2c(C)noc2N)cc1 ; method: resazurin ; strain: PCM 672 ; value: 62.5 µg/mL
CC1COc2c(N3CCN(C)CC3)c(F)cc3c(=O)c(C(=O)O)cn1c23 ; strain: 25 isolates ; value: >4 µg/mL
Cc1noc2ncn(/N=C/c3ccc(O)cc3)c(=O)c12 ; method: resazurin ; strain: PCM 672 ; value: >100 µg/mL
CN1CCN(c2cc3c(cc2F)c(=O)c(C(=O)O)cn3C2CC2)CC1 ; strain: 16 isolates ; value: 0.25 µg/mL
CC[C@H]1OC(=O)[C@H](C)[C@@H](O[C@H]2C[C@@](C)(OC)[C@@H](O)[C@H](C)O2)[C@H](C)[C@@H](O[C@@H]2O[C@H](C)C[C@H](N(C)C)[C@H]2O)[C@](C)(OC)C[C@@H](C)C(=O)[C@H](C)[C@@H](O)[C@]1(C)O ; strain: 25 isolates ; value: >8 µg/mL
CN1CCN(c2c(F)cc3c(=O)c(C(=O)O)cn(CCF)c3c2F)CC1 ; strain: 18367 ; value: 3.13 µg/mL
CC[C@H]1OC(=O)[C@H](C)[C@@H](O[C@H]2C[C@@](C)(OC)[C@@H](O)[C@H](C)O2)[C@H](C)[C@@H](O[C@@H]2O[C@H](C)C[C@H](N(C)C)[C@H]2O)[C@](C)(O)C[C@@H](C)C(=O)[C@H](C)[C@@H](O)[C@]1(C)O ; strain: 25 isolates ; value: >8 µg/mL
Cc1noc2nc(C)n(/N=C/c3ccc(Cl)cc3Cl)c(=O)c12 ; method: resazurin ; strain: PCM 672 ; value: >100 µg/mL
CCc1cc(C(N)=S)ccn1 ; strain: 18 strains ; value: ≥64 µg/mL
Cc1ccc(/C=N/n2cnc3onc(C)c3c2=O)cc1 ; method: resazurin ; strain: PCM 672 ; value: >100 µg/mL
NC[C@H]1O[C@H](O[C@H]2[C@H](O)[C@@H](O[C@H]3O[C@H](CO)[C@@H](O)[C@H](N)[C@H]3O)[C@H](N)C[C@@H]2N)[C@H](N)C[C@@H]1O ; strain: 31 isolates ; value: >64 µg/mL
Cc1c(F)c(N2CCNC(C)C2)cc2c1c(=O)c(C(=O)O)cn2C1CC1 ; strain: 20 strains ; value: 25 µg/mL
Cc1noc(N)c1C(=O)N/N=C/c1ccccc1 ; method: resazurin ; strain: PCM 672 ; value: >100 µg/mL
CC(C)N=c1cc2n(-c3ccc(Cl)cc3)c3ccccc3nc-2cc1Nc1ccc(Cl)cc1 ; method: broth dilution ; value: ≤0.5 µg/mL
NC[C@@H]1O[C@H](O[C@H]2[C@@H](O)[C@H](O[C@@H]3[C@@H](O)[C@H](N)C[C@H](N)[C@H]3O[C@H]3O[C@H](CN)[C@@H](O)[C@H](O)[C@H]3N)O[C@@H]2CO)[C@H](N)[C@@H](O)[C@@H]1O ; strain: 31 isolates ; value: 16 µg/mL

For reference, 2 entries again:

smiles,method,strain,value
NC[C@H]1O[C@H](O[C@H]2[C@H](O)[C@@H](O[C@H]3O[C@H](CO)[C@@H](O)[C@H](N)[C@H]3O)[C@H](N)C[C@@H]2N)[C@H](N)C[C@@H]1O,-,31 isolates,>64 µg/mL
Cc1noc2ncn(/N=C/c3ccc(O)cc3)c(=O)c12,resazurin,PCM 672,>100 µg/mL